Values from PubChem BioAssay AID504761 (Drosophila RNAi Screening Center, 2011)

Aim: 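Insect host genes that dengue virus relies on to spread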 (primary screen)
Cells: D.Mel-2 cells from Drosophila
Reagents: long dsRNA against Drosophila genes
Treatment: infection with dengue virus type 2; dose and infection time not stated
Read-out: 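Cells stained for dengue envelope protein and imaged; percent of infected cells per well on duplicate plates, ranked by infection, with stained nuclei counted for cell number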
Direction: infection score: higher = more virus-infected cells; cell count: higher = more cells in the well
Hit rule: 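Very low infection ranking in both replicate wells (chance probability at most 0.065), then a retest showing infection dropped 1.5-fold or more at p below 0.05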
Meaning of the calls: active = confirmed: knock-down lowers infection; inactive = not picked or not confirmed
In all, the deposit lists about 22,000 reagents; below is an unselected part of those that have a named target and a result. Over the whole deposit, 116 (0.52%) are marked active. 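Calls depend on retest data that are not deposited; infection was ranked per plate without normalising between plates; the unit of the infection score is not given.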 Raw values vary from plate to plate and are shown uncorrected. A plus sign joins genes that one reagent is predicted to hit. The record does not give: the amount of reagent, the time to read-out.

target gene	dsRNA	infection score, replicate 1	infection score, replicate 2	cell count, replicate 1	cell count, replicate 2	outcome
Ktl	DRSC14270	5.69	6.6	6481	6304	inactive
Sem1	DRSC02282	9.64	24.4	1732	3684	inactive
Sem1	DRSC30061	6.38	13.5	5239	4918	inactive
CG16820	DRSC02522	20.8	27	6522	5578	inactive
CG42486 + CG14933	DRSC26454	2.32	10.7	6973	3995	inactive
CG15472	DRSC18055	2.86	3.73	595	4291	inactive
Pdxk	DRSC10419	1.42	2.71	6131	6429	inactive
CG12362	DRSC09884	0.53	1.43	5983	6083	inactive
CG42673	DRSC08989	3.14	2.73	6179	6301	inactive
CG42673	DRSC08991	0.94	7.39	961	1178	inactive
CG42673	DRSC10177	3.33	3.04	5774	5889	inactive
CG42673	DRSC10264	0.78	2.29	6022	6110	inactive
CG42673	DRSC10353	5.25	3.36	6212	6165	inactive
CG42673	DRSC10354	1.92	4.99	5980	6776	inactive
CG42673	DRSC25788	9.54	1.74	5996	6671	inactive
ktub	DRSC04551	6.53	17.4	2955	6435	inactive
E(spl)m4-BFM	DRSC16992	1.4	3.94	6717	6468	inactive
E(spl)m4-BFM	DRSC27642	3.46	11.1	7146	1430	inactive
Eogt	DRSC00727	6.72	3.36	6251	5951	inactive
Eogt	DRSC26180	26.4	5.19	5624	6378	inactive
pre-mod(mdg4)-Z + mod(mdg4) + pre-mod(mdg4)-T	DRSC13477	0.12	0.17	6528	6568	inactive
pre-mod(mdg4)-Z + mod(mdg4) + pre-mod(mdg4)-T	DRSC17001	1.72	0.83	6094	6143	inactive
Edg84A	DRSC12594	15.3	3.99	5108	5515	inactive
CG30278	DRSC22787	4.82	17.4	6057	4921	inactive
CSN4	DRSC07350	21.4	1.22	1751	490	inactive
CG5292	DRSC15763	1.99	9.39	6681	5877	inactive
CG5292	DRSC26304	13.6	2.06	5947	6012	inactive

Continued; the last 8 above are carried over.
target gene	dsRNA	infection score, replicate 1	infection score, replicate 2	cell count, replicate 1	cell count, replicate 2	outcome
Eogt	DRSC26180	26.4	5.19	5624	6378	inactive
pre-mod(mdg4)-Z + mod(mdg4) + pre-mod(mdg4)-T	DRSC13477	0.12	0.17	6528	6568	inactive
pre-mod(mdg4)-Z + mod(mdg4) + pre-mod(mdg4)-T	DRSC17001	1.72	0.83	6094	6143	inactive
Edg84A	DRSC12594	15.3	3.99	5108	5515	inactive
CG30278	DRSC22787	4.82	17.4	6057	4921	inactive
CSN4	DRSC07350	21.4	1.22	1751	490	inactive
CG5292	DRSC15763	1.99	9.39	6681	5877	inactive
CG5292	DRSC26304	13.6	2.06	5947	6012	inactive
CG6674	DRSC10692	8.04	6.33	6381	6651	inactive
pen-2	DRSC05722	4.46	1.95	5648	5382	inactive
ems	DRSC25044	2.51	1.62	5935	6490	inactive
CG10973	DRSC09813	5.9	10.7	6372	6382	inactive
CG4218	DRSC01939	18.7	5.73	5547	6633	inactive
CG4218	DRSC27814	4.4	11.8	6666	6783	inactive
CG11357	DRSC08183	2.1	1.54	6382	6287	inactive
CG12849	DRSC04129	1.87	29.3	6425	4739	inactive
CG12016 + Dpm2	DRSC08224	13	11.6	6004	2591	inactive
CG12016 + Dpm2	DRSC25292	2.44	3.48	7331	7005	inactive
Ctu2	DRSC02024	9.95	6.73	6681	6507	inactive
Ctu2	DRSC29317			292	321	inactive
Cpr49Af	DRSC07202	30.4	11.5	4365	6382	inactive
Cpr49Af	DRSC24397	2.5	6.71	6043	5630	inactive
sky	DRSC02383	42.6	46	5426	3889	inactive
sky	DRSC03214	28.8	14.8	6049	1265	inactive
sky	DRSC03215	3.61	2.16	5043	6382	inactive
Or83a	DRSC12357	6.49	5.03	6733	6700	inactive
Sp7	DRSC15461	13	4.97	6423	6183	inactive
CG3225	DRSC00578	25.5		6158	527	inactive
CG3225	DRSC30078	3.76	6.87	6199	6241	inactive
CG18585	DRSC02678	6.43	1.99	6438	6590	inactive
CG9577	DRSC20693	2.88	5.87	6430	6542	inactive
CG9577	DRSC27691	18.7	7.28	5619	6562	inactive
Obp47b + CG7741	DRSC06330	3.65	13.4	1616	2425	inactive
Obp47b + CG7741	DRSC27574	13.2	30.7	6751	4063	inactive
Gem2	DRSC09721	0.98	6.64	6809	6342	inactive
RpL7A	DRSC18709	3.15	2.13	1237	1267	inactive
RpL7A	DRSC28833	3.47	6.68	749	659	inactive
kay	DRSC13962	6.64	3.3	6518	6581	inactive
kay	DRSC16977	1.5	7.95	5348	6251	inactive
